Compound potency records, mixed from different reports. Data source: NIAID ChemDB in PubChem.

Common to all: whole-cell or culture tests; organism: HIV-1; read by: cytopathic effect / MTT; read-out: EC50

ECn is the concentration giving n% inhibition of infection, replication or growth. Conditions beyond the fields shown may differ between rows. An empty or dashed field is not shown.

| SMILES | cells | changes | setting | strain or isolate | value |
|---|---|---|---|---|---|
| Clc1ccc(Nc2nccs2)cc1OCc1nccs1 | MT-2 |  |  | IIIB | >20 µM |
| CCOC(=O)c1cnn2c1n[n+]([O-])c1ccccc12 | MT-4 |  |  | IIIB | >143 µM |
| CC(C)CN(C[C@@H](O)[C@H](Cc1ccccc1)NC(=O)O[C@H]1CO[C@H]2OCC[C@H]21)S(=O)(=O)c1ccc(-c2coc(-c3ccc(I)cc3)n2)cc1 | MT-4 |  |  | LAI | 0.079 µM |
| COc1cccc(N2CCN(CN3C(=O)/C(=N\c4ncc(Cc5cc(OC)c(OC)c(OC)c5)c(N)n4)c4cc(F)ccc43)CC2)c1 | MT-4 |  |  | IIIB | >81.6 µg/mL |
| CCC(C)Sc1nc(Cc2ccccc2)cc(=O)[nH]1 | MT-4 |  |  | IIIB | 1.2 µM |
| N#Cc1c(-c2ccc(Cl)cc2)c2c(n([C@@H]3O[C@H](CO)[C@@H](O)[C@H](O)[C@H]3O)c1=S)-c1ccccc1C2 | MT-4 |  |  |  | 0.166 µM |
| Cc1cc(Br)cc(C)c1OCC(=O)N[C@@H](Cc1ccccc1)[C@H](O)CN(CC(C)C)S(=O)(=O)c1ccc(-c2csc(Nc3ccccc3)n2)cc1 | MT-4 |  |  | LAI | 100 µM |
| CC(C)=CCOc1cc(Nc2nc(C)cc(N)n2)ccc1Cl | MT-2 |  |  | IIIB | >0.004 µM |
| COc1cc(Cc2cnc(/N=C3\C(=O)N(CN(C)C)c4ccc(F)cc43)nc2N)cc(OC)c1OC | MT-4 |  |  | IIIB | >62.7 µg/mL |
| [O-][n+]1nc2c(Br)cnn2c2ccc(Cl)cc21 | MT-4 |  |  | IIIB | >200 µM |
| COc1cc(Cc2cnc(/N=C3\C(=O)N(CN4CCC(C)CC4)c4ccc(F)cc43)nc2N)cc(OC)c1OC | MT-4 |  |  | IIIB | >69.6 µg/mL |
| COCc1cccc(CN2CCN([C@H](C(=O)N[C@@H](Cc3ccccc3)[C@H](O)CN(CC(C)C)S(=O)(=O)c3ccc(/C=N/O)cc3)C(C)(C)C)C2=O)n1 | MT-4 |  | 50% human serum |  | 0.023 µM |
| COC(=O)c1cnn2c1n[n+]([O-])c1ccccc12 | MT-4 |  |  | IIIB | >98 µM |
| COc1cc(Cc2cnc(/N=C3\C(=O)N(CN4CCN(c5cccc(Cl)c5)CC4)c4ccc(F)cc43)nc2N)cc(OC)c1OC | MT-4 |  |  | IIIB | >121.6 µg/mL |
| CC(C)CN(C[C@@H](O)[C@H](Cc1ccccc1)NC(=O)O[C@H]1CO[C@H]2OCC[C@H]21)S(=O)(=O)c1ccc(-c2coc(-c3ccco3)n2)cc1 | MT-4 | PR-L010F M046I M071V I084V |  |  | 0.1788 µM |
| CCC(C)Sc1nc(Cc2ccccc2OC)cc(=O)[nH]1 | MT-4 |  |  | IIIB | 0.96 µM |
| N#Cc1ccc(Nc2nccs2)cc1OCC1=CCCC1 | MT-2 |  |  | IIIB | >1.7 µM |
| CCC(C)[C@@H](C(=O)N[C@@H](Cc1ccccc1)[C@H](O)CN(CC1CCCC1)S(=O)(=O)c1ccc(/C=N/O)cc1)N1CCN(Cc2cnccc2C)C1=O | MT-4 |  | 50% human serum |  | 0.014 µM |
| CCOC(=O)c1cnn2c1nnc1ccccc12 | MT-4 |  |  | IIIB | >200 µM |
| CCC(C)Sc1nc(Cc2ccc(OC)cc2)cc(=O)[nH]1 | MT-4 |  |  | IIIB | 14.7 µM |
| CCC(C)[C@@H](C(=O)N[C@@H](Cc1ccccc1)[C@H](O)CN(CC(C)C)S(=O)(=O)c1ccc(/C=N/O)cc1)N1CCN(Cc2cccnc2)C1=O | MT-4 |  |  |  | 0.004 µM |
| CC[C@H](C)[C@H](NC(=O)C(C)N(C(=O)[C@H](Cc1ccccc1)NC(=O)[C@H](C)NC(=O)OC(C)(C)C)C(Br)CBr)C(=O)N[C@H](C(=O)OC)C(C)C | CEM |  |  | LAI | 111 µg/mL |
| [O-][n+]1nc2c(-c3ccc(F)cc3)cnn2c2cc(Cl)ccc21 | MT-4 |  |  | IIIB | >200 µM |
| N#Cc1ccc(Nc2nccs2)cc1OCc1cccs1 | MT-2 |  |  | IIIB | >4.1 µM |
| C=CCN(C(=O)[C@H](Cc1ccccc1)NC(=O)[C@H](C)NC(=O)OC(C)(C)C)C(C)C(=O)N[C@H](C(=O)N[C@H](C(=O)OC)C(C)C)[C@@H](C)CC | CEM |  |  | LAI | 80 µg/mL |
| Cc1nc(-c2ccc(S(=O)(=O)N(CC(C)C)C[C@@H](O)[C@H](Cc3ccccc3)NC(=O)O[C@H]3CO[C@H]4OCC[C@H]43)cc2)co1 | MT-4 | PR-L010F M046I M071V I084V |  |  | 0.168 µM |
| CCC(C)[C@@H](C(=O)N[C@@H](Cc1ccccc1)[C@H](O)CN(CC(C)C)S(=O)(=O)c1ccc(/C=N/O)cc1)N1CCN(Cc2ccncc2)C1=O | MT-4 | PR-L10F V32I M46I I47V Q68E I84V |  | A17 (LPV-resistant) | 0.008 µM |
| O=[N+]([O-])c1cnn2c1n[n+]([O-])c1cc(Cl)ccc12 | MT-4 |  |  | IIIB | >1.4 µM |
| COc1cccc(-c2nc(-c3ccc(S(=O)(=O)N(CC(C)C)C[C@@H](O)[C@H](Cc4ccccc4)NC(=O)O[C@H]4CO[C@H]5OCC[C@H]54)cc3)co2)c1 | MT-4 |  |  | LAI | 0.01 µM |
| Clc1ccc2nnc3ccnn3c2c1 | MT-4 |  |  | IIIB | >200 µM |
| CCC(C)Sc1nc(Cc2cccc3ccccc23)c(CN2CCCCC2)c(=O)[nH]1 | MT-4 |  |  | IIIB | >26 µM |
| CCOC(=O)c1cnn2c1nnc1cc([N+](=O)[O-])ccc12 | MT-4 |  |  | IIIB | >12.7 µM |
| CCn1cc(C(=O)O)c(=O)c2cc(F)c(N3CCN(CN4C(=O)/C(=N\c5ncc(Cc6cc(OC)c(OC)c(OC)c6)c(N)n5)c5cc(F)ccc54)CC3)cc21 | MT-4 |  |  | IIIB | 12.1 µg/mL |

A second listing of 5 rows from above:

SMILES | cells | changes | setting | strain or isolate | value
CCn1cc(C(=O)O)c(=O)c2cc(F)c(N3CCN(CN4C(=O)/C(=N\c5ncc(Cc6cc(OC)c(OC)c(OC)c6)c(N)n5)c5cc(F)ccc54)CC3)cc21 | MT-4 |  |  | IIIB | 12.1 µg/mL
CCOC(=O)c1cnn2c1nnc1ccccc12 | MT-4 |  |  | IIIB | >200 µM
C=CCN(C(=O)[C@H](Cc1ccccc1)NC(=O)[C@H](C)NC(=O)OC(C)(C)C)C(C)C(=O)N[C@H](C(=O)N[C@H](C(=O)OC)C(C)C)[C@@H](C)CC | CEM |  |  | LAI | 80 µg/mL
CC(C)CN(C[C@@H](O)[C@H](Cc1ccccc1)NC(=O)O[C@H]1CO[C@H]2OCC[C@H]21)S(=O)(=O)c1ccc(-c2coc(-c3ccc(I)cc3)n2)cc1 | MT-4 |  |  | LAI | 0.079 µM
Cc1cc(Br)cc(C)c1OCC(=O)N[C@@H](Cc1ccccc1)[C@H](O)CN(CC(C)C)S(=O)(=O)c1ccc(-c2csc(Nc3ccccc3)n2)cc1 | MT-4 |  |  | LAI | 100 µM